Measured values from several laboratories, pooled; numbers as filed in NIAID ChemDB.

Common to all: whole-cell or culture tests; agent: Cryptococcus neoformans; endpoint: MIC

Blank or dashed fields: not listed here. Neighbouring rows are from separate reports.

| SMILES | strain | read by | result |
|---|---|---|---|
| C[C@@H]1CC(=O)N(c2ccc(Cl)cc2)C1=O | ATCC 32264 | broth dilution / turbidity | 31.3 µg/mL |
| CCCCOc1ccccc1N1CCN(CCc2nnnn2CC(O)(Cn2cncn2)c2ccc(F)cc2F)CC1 | LA314 | - | >16 µg/mL |
| O=C1/C(=C/c2ccc(F)cc2)CCc2ccccc21 | 93/V | - | 50 µg/mL |
| COc1ccc(-c2c(C#N)c(OC)nc3c2CSc2ccccc2-3)cc1 | 25 | - | 12.5 µg/mL |
| C[C@@H]1CC(=O)N(c2ccc(F)cc2F)C1=O | ATCC 32264 | broth dilution / turbidity | 62.5 µg/mL |
| COc1ccc(-c2c(C#N)c(OC)nc3c2CSc2ccccc2-3)cc1OC | 93/V | - | 6 µg/mL |
| NCCNC(=O)C1=Nc2ccc(NC(=O)C3=Nc4ccc(C(=O)Nc5ccc6[nH]c(C(=O)NCCN)cc6c5)cc4C3)cc2C1 | Serotype C | - | 1 µg/mL |
| Cc1nnc(NS(=O)(=O)c2ccc(N)cc2)s1 | IFM 40216 | - | ≥256 µg/mL |
| COc1ccc2c(c1)C(=O)/C(=C/c1ccc3c(c1)OCO3)CO2 | Farwania | - | 12.5 µg/mL |
| CC1C(=O)N(c2ccccc2)C(=O)C1C | ATCC 32264 | broth dilution / turbidity | 125 µg/mL |
| COc1ccc(NS(=O)(=O)c2ccc(N)cc2)nn1 | IFM 49722 | - | ≥256 µg/mL |
| C[C@@H]1CC(=O)N(c2ccc([N+](=O)[O-])cc2)C1=O | ATCC 32264 | broth dilution / turbidity | 62.5 µg/mL |
| COc1cccc(C2Sc3ccccc3C2CO)c1O | 93/V | - | 50 µg/mL |
| COc1nc2c(c(-c3ccc4ccccc4c3)c1C#N)CSc1ccc(Cl)cc1-2 | 93/V | - | 25 µg/mL |
| C[C@@H](c1ncncc1F)[C@](O)(Cn1cncn1)c1ccc(F)cc1F | CBS 131 | broth dilution | 0.125 µg/mL |
| COc1ccc(N2C(=O)CC(C)C2=O)cc1 | ATCC 32264 | broth dilution / turbidity | 62.5 µg/mL |
| OCC1c2ccccc2SC1c1ccc(O)cc1O | Farwania | - | 6 µg/mL |
| CN[C@@H]1[C@H](O[C@@H]2O[C@H](CO)[C@@H](O)[C@H](S(=O)(=O)O)[C@H]2O)[C@@H](O)[C@H](O[C@H]2c3cc(C)c(C(=O)N[C@H](CO)C(=O)O)c(O)c3-c3c(cc4c(c3O)C(=O)c3cc(OC)cc(O)c3C4=O)[C@@H]2O)O[C@@H]1C | IAM 4514 | - | 6.3 µg/mL |
| NC(=O)C1=C(O)OC2=C(CSc3ccccc32)C1c1ccccc1 | Farwania | - | 12.5 µg/mL |
| Oc1ccccc1N=Cc1ccc2c(c1)OCO2 | 27JF | broth dilution | 11.3 µg/mL |
| C[C@@H]1C(=O)N(c2ccccc2)C(=O)[C@@H]1C | ATCC 32264 | broth dilution / turbidity | 62.5 µg/mL |
| OCC1c2ccccc2SC1c1ccccc1 | 93/V | - | 50 µg/mL |
| Oc1ccc(O)c(C=Nc2ccccc2O)c1 | 96806 | broth dilution | 11.3 µg/mL |
| COc1ccc(/C=C2\CCc3ccccc3C2=O)cc1 | Farwania | - | 100 µg/mL |
| CCC(C)n1ncn(-c2ccc(N3CCN(c4ccc(OC[C@H]5CO[C@](Cn6cncn6)(c6ccc(Cl)cc6Cl)O5)cc4)CC3)cc2)c1=O | Clinical isolate (IM 983040) | broth dilution | <0.015 µg/mL |
| OC(Cn1cncn1)(Cn1nnnc1CCN1CCN(c2ccccc2Cl)CC1)c1ccc(F)cc1F | LA314 | - | 8 µg/mL |
| COc1ccc2c(c1)C(=O)/C(=C/c1ccc3c(c1)OCO3)CS2 | 25 | - | 12.5 µg/mL |
| COc1ccccc1-c1c(C#N)c(OC)nc2c1CSc1ccc(Cl)cc1-2 | 93/V | - | 25 µg/mL |
| COc1cc(NS(=O)(=O)c2ccc(N)cc2)nc(OC)n1 | IFM 51976 | - | ≥256 µg/mL |
| C[C@H]1[C@H](O)[C@@H](C)/C=C/C=C/C=C/C=C/C=C/C=C/C=C/[C@H](O[C@@H]2O[C@H](C)[C@@H](O)[C@H](N)[C@@H]2O)C[C@@H]2O[C@](O)(C[C@@H](O)C[C@@H](O)CC[C@H](O)[C@@H](O)C[C@@H](O)CC(=O)O[C@H]1C)C[C@H](O)[C@H]2C(=O)O | ATCC 32264 | broth dilution / turbidity | 0.24 µg/mL |
| N#CC1=C(N)OC2=C(CSc3ccccc32)C1c1cccc2ccccc12 | Farwania | - | 12.5 µg/mL |
| COc1ccc(-c2sc3ccccc3c2CO)c(O)c1 | Isolate 25 | - | 12.5 µg/mL |
| C[C@@H](c1ncncc1F)[C@](O)(Cn1cncn1)c1ccc(F)cc1F | Clinical isolate (IM 042074) | broth dilution | <0.015 µg/mL |
| Nc1ccc(S(=O)(=O)Nc2ccnn2-c2ccccc2)cc1 | IFM 40215 | - | ≤4 µg/mL |
| COc1ccc(-c2c(C#N)c(OC)nc3c2CSc2ccc(OC)cc2-3)cc1 | Farwania | - | 12.5 µg/mL |
| COc1ccccc1N1CCN(CCc2nnn(C(C)C(O)(Cn3cncn3)c3ccc(F)cc3F)n2)CC1 | LA314 | - | 8 µg/mL |
| Oc1ccccc1N=Cc1cccc(O)c1O | 28JF | broth dilution | 4 µg/mL |
| COC1CC2CCC(C)C(O)(O2)C(O)C(O)N2CCCCC2C(=O)OC(C(C)CC2CCC(O)C(OC)C2)CC(=O)C(C)/C=C(\C)C(O)C(OC)C(=O)C(C)CC(C)/C=C/C=C/C=C/1C | WILD TYPE | - | 3.12 µg/mL |
| COc1ccccc1C1C(C#N)=C(N)OC2=C1CSc1ccccc12 | Farwania | - | 12.5 µg/mL |
| Oc1ccccc1C=Nc1ccccc1O | ATCC 24067 | broth dilution | 5.7 µg/mL |
| CNC(NC)c1ccc2cc(-n3cc(CCCO)nn3)c(=O)oc2c1 | ATCC 62066 | broth dilution | >750 µg/mL |
| Oc1cccc(C=Nc2ccccc2O)c1 | 96806 | broth dilution | 4 µg/mL |
| COC1CC2CCC(C)C(O)(O2)C(=O)C(=O)N2CCCCC2C(=O)OC(C(C)CC2CCC(O)C(OC)C2)CC(=O)C(C)/C=C(\C)[C@@](O)(c2ccc(C)s2)C(OC)C(=O)C(C)CC(C)/C=C/C=C/C=C/1C | WILD TYPE | - | >100 µg/mL |
| COc1ccccc1-c1c(C#N)c(OC)nc2c1CSc1ccccc1-2 | 93/V | - | 25 µg/mL |
| OC(Cn1cncn1)(Cn1nnc(CCN2CCN(Cc3ccccc3)CC2)n1)c1ccc(F)cc1F | LA314 | - | >16 µg/mL |
| Oc1ccccc1N=Cc1ccc(F)cc1 | 5396 | broth dilution | 8 µg/mL |